Experimental data as given in patent US20050244490A1, “Dosing methods for beta-D-2',3'-dideoxy-2',3'-didehydro-5-fluorocytidine antiviral therapy” (priority 2003, published 2005).

Test system: acutely HIV-1 infected human PBM cells
Assay: Median effect / combination index study with Racivir
Type: cell-based
Conditions: Day 5; assays (1), (2), (3)

Row | SMILES | m ± SE (slope of median effect plot)
1 | Cc1cn([C@H]2C=C[C@@H](CO)O2)c(=O)[nH]c1=O [D4T, 2′,3′-didehydro-2′,3′-dideoxythymidine] | 1.2 ± 0.08
2 | Nc1nc(=O)n(C2CSC(CO)O2)cc1F (stereo not shown) [Racivir] | 0.87 ± 0.14 and 1.4 ± 0.14 and 0.88 ± 0.10
3 | Nc1nc(=O)n(C2C=CC(CO)O2)cc1F [β-D-D4FC, β-D-2′,3′-Didehydro-2′,3′-dideoxy-5-fluorocytidine] | 1.1 ± 0.12 and 1.3 ± 0.20
4 | OC[C@@H]1CC[C@H](n2cnc3c(O)ncnc32)O1 [DDI, 2′,3′-dideoxyinosine] | 1.2 ± 0.02

Values joined by “and” are separate entries in the source; they are usually repeats but may differ in a detail not shown here. Equal values may be shown once.
